Reference: patent US10336792B2 (priority 2014, dated 2019)

Tests used:
Assay type in all cases: cell-based
[1] = test system: Escherichia coli (strain DH5α); conditions: MHC on hRBC / MIC E. coli
Method: (§1) Antimicrobial activity was assayed against Bacillus subtilis (strain BR151), Escherichia coli (strain DH5α) and Pseudomonas aeruginosa (strain PA01). Microdilution broth method was used to determine the minimal inhibitory concentration (MIC). A colony of bacteria was grown in LB-medium overnight at 37° C. The concentration was quantified by measuring absorbance at 600 nm and diluted to OD600=0.1 (1×10^8 CFU/mL). The samples were prepared as stock solutions of 1 mg mL^−1 in H2O and diluted serially by ⅔ in nutrient LB in a 96-well microtiterplate (Cornstar, polypropylene, untreated). The sample solutions (50 μL) were mixed with the diluted bacterial suspension with an OD600 nm of 0.001 (50 μL). […] The plates were incubated at 37° C. until satisfactory growth (18-24 h). For each test, two columns of the plate were kept for sterility control (SC, broth only) and growth control (GC, broth with bacterial inoculums, no antibiotics). 10 μL of a solution of MTT (0.1% in H2O) was added to each well. The minimal inhibitory concentration (MIC) was defined as the lowest concentration of the antimicrobial substance (peptide dendrimer) that inhibited visible growth of the tested bacteria (yellow) with the unaided eye. For microbiological study the linear peptide LysTyrLysLysAlaLeuLysLysLeuAlaLysLeuLeu (SEQ ID No. 1) was used as reference.
(§2) The AMPD library was tested for their antimicrobial activity against B. subtilis BR151, a Gram-positive bacterium and E. coli DH5α, another Gram-negative bacterium, to cover a broader spectrum of different bacteria. […] Therefore no explicit SAR can be established, but clearly the hydrophobic amino acids Ala and Tyr seem to have a significant influence in reducing activity.

[2] = test system: Bacillus subtilis (strain BR151); conditions: MHC on hRBC / MIC B. subtilis
Method: as §1, §2

[3] = test system: Pseudomonas aeruginosa (strain PA01); conditions: MHC on hRBC / MIC PAO1
Method: as §1
All peptides were tested for their activity against P. aeruginosa PAO1 in a broth dilution assay (Wiegand, I. et al., 2008, Nat. Protoc., 3, 163-75; Clinical and Laboratory Standards Institute document M7-A7 7th Edition) to determine the MIC (minimal inhibitory concentration) values. The stock solutions of the peptide dendrimers were diluted serially by ⅔ in nutrient LB in 96-well microtiter plates. Bacteria were grown in nutrient LB overnight at 37° C. After dilution the bacteria were added to the peptides and incubated overnight (18-24 h) at 37° C. […] The position of the amino acids between the branching units seems to be optimal if the hydrophobic amino acid is the first counting from C-terminus and the charged one is on the second position. […]

For “(DabL)8(KDabW)4(KDabW)2(KDabL) [MSt-204]”, the “TI (MHC/MIC), E. coli DH5α” value [1] was 73, the “TI (MHC/MIC), B. subtilis BR151” value [2] was 73 and the “TI (therapeutic index = MHC/MIC), P. aeruginosa PAO1” value [3] was 49.

(KKL)4(KKKL)2(KKKL) [MIS-03] was tested, and the “TI (MHC/MIC), B. subtilis BR151” value [2] was 36.

In the case of “(KL)32(KKL)16(KKLCxKL)8(KKL)4(KKL)2KKL [CCS-15]”, the “TI (MHC/MIC), E. coli DH5α” value [1] is reported as 1 and the “TI (MHC/MIC), B. subtilis BR151” value [2] is reported as 0.3.

In the case of (KLL)4(KKLL)2(KKLL) [MIS-02], the “TI (MHC/MIC), B. subtilis BR151” value [2] is reported as 15 and the “TI (therapeutic index = MHC/MIC), P. aeruginosa PAO1” value [3] is reported as 5.

With (LA)8(KLK)4(KLA)2(KKL) [MSt-120] the “TI (therapeutic index = MHC/MIC), P. aeruginosa PAO1” value [3] was 42.
